Experimental findings from US20060115815A1 (priority 2002, published 2006) are described below.

Experiment [1] has as its system mutant HIV-1 with L10I/M46I/I50V mutations in the protease gene (I50V #2). The conditions noted are these: fold difference in EC50, mutant vs. wild type.
Experiment [2] concerns mutant HIV-1 with M46I/I47V/I50V mutations in the protease gene (I50V #1).
The mark [3] stands for this setting: fold difference in EC50, mutant vs. wild type.

Read-outs that look alike come from different tables or passages of the source.

For the compound `CCOC(=O)C(CC)OP(=O)(CCNCc1ccc(C[C@H](NC(=O)O[C@H]2CO[C@H]3OCC[C@H]32)[C@H](O)CN(CC(C)C)S(=O)(=O)c2ccc(OC)cc2)cc1)Oc1ccccc1` (stereo partly shown) [drawing 662 R1=Ph R2=Hba-Et], the “I50V (#2) fold change” value in experiment [1] is given as “++ (>10 to ≦30)”. Regarding `COc1ccc(S(=O)(=O)N(CC(C)C)CC(O)C(Cc2ccc(C)cc2)NC(=O)OC2COC3OCCC23)cc1` (stereo not shown), the “I50V (#1) fold change” value in experiment [2] (I50V (#1) mutant) is on record as “++ (>10 to ≦30)”. As for `CCOC(=O)C(C)OP(=O)(Cc1ccc2c(c1)CCN(C[C@H](NC(=O)O[C@H]1CO[C@H]3OCC[C@H]31)[C@H](O)CN(CC(C)C)S(=O)(=O)c1ccc(OC)cc1)C2)Oc1ccccc1` (stereo partly shown), the “I50V (#1) fold change” value in experiment [2] (setting [3]) is given as “+ (>3 to ≦10)”.

As for `COc1ccc(S(=O)(=O)N(Cc2ccccc2)CC(O)C(Cc2ccccc2)NC(=O)OC2COC3OCCC23)cc1` (stereo not shown), the “I50V (#1) fold change” value in experiment [2] (I50V (#1) mutant) is listed as “+++ (>30)”. Turning to `COc1ccc(S(=O)(=O)N(CC(C)C)CC(O)C(Cc2ccc(CNCCP(=O)(O)O)cc2)NC(=O)OC2COC3OCCC23)cc1` (stereo not shown) [drawing 662 R1=H R2=H], in experiment [1], the “I50V (#2) fold change” value is given as “+ (>3 to ≦10)”. On to `CCOP(=O)(COc1cc(S(=O)(=O)N(CC(C)C)CC(O)C(Cc2ccccc2)NC(=O)OC2COC3OCCC23)ccc1O)OCC` (stereo not shown), for which the “I50V (#1) fold change” value in experiment [2] (I50V (#1) mutant) is reported as “+ (>3 to ≦10)”. Same read-out and setting: then `COc1ccc(S(=O)(=O)N(CC(C)C)CC(O)C(Cc2ccccc2)NC(=O)OC2COC3OCCC23)cc1OCP(=O)(O)O` (stereo not shown), with “+ (>3 to ≦10)”. For the compound `CCOC(=O)C(C)OP(=O)(CCNc1ccc(CC(NC(=O)OC2COC3OCCC23)C(O)CN(CC(C)C)S(=O)(=O)c2ccc(OC)cc2)cc1)Oc1ccccc1` (single isomer, unassigned) [drawing 706], in experiment [2] (setting [3]), the “I50V (#1) fold change” value was “++ (>10 to ≦30)”.

`CCOC(=O)C(C)OP(=O)(COc1ccc2c(c1)CCN(CC(NC(=O)OC1COC3OCCC13)C(O)CN(CC(C)C)S(=O)(=O)c1ccc(OC)cc1)C2)Oc1ccccc1` (stereo not shown): in experiment [2] (setting [3]), the “I50V (#1) fold change” value was “+ (>3 to ≦10)”. With `CCOP(=O)(COc1cc(S(=O)(=O)N(CC(C)C)CC(O)C(Cc2ccccc2)NC(=O)OC2COC3OCCC23)ccc1OC)OCC` (stereo not shown), the “I50V (#1) fold change” value in experiment [2] (I50V (#1) mutant) is listed as “+ (>3 to ≦10)”. Same read-out and setting: then `COc1ccc(S(=O)(=O)N(CCN2CCOCC2)CC(O)C(Cc2ccc(OCP(=O)(OCc3ccccc3)OCc3ccccc3)cc2)NC(=O)OC2COC3OCCC23)cc1` (stereo not shown), with “+ (>3 to ≦10)”. Take `CCOP(=O)(Cc1ccc(CC(NC(=O)OC2COC3OCCC23)C(O)CN(CC(C)C)S(=O)(=O)c2ccc(OC)cc2)cc1)OCC` (stereo not shown) [drawing 654 R1=OE R2=OE]: the “I50V (#1) fold change” value in experiment [2] (setting [3]) is recorded as “+ (>3 to ≦10)”. `COc1ccc(S(=O)(=O)N(CCN2CCOCC2)CC(O)C(Cc2ccc(OCP(=O)(O)O)cc2)NC(=O)OC2COC3OCCC23)cc1` (stereo not shown): the “I50V (#1) fold change” value in experiment [2] (I50V (#1) mutant) is recorded as “+ (>3 to ≦10)”. Same read-out and setting: the result for `CC(C)CN(C[C@@H](O)[C@H](Cc1ccc(OCP(=O)(OCc2ccccc2)OC(C)C(=O)OCc2ccccc2)cc1)NC(=O)O[C@H]1CO[C@H]2OCC[C@H]21)S(=O)(=O)c1ccc(F)cc1` (stereo partly shown) reads “+ (>3 to ≦10)”; that for `CC(C)CN(CC(O)C(Cc1ccccc1)NC(=O)OC1COC2OCCC12)S(=O)(=O)c1cccc(O)c1` (stereo not shown), “+ (>3 to ≦10)”.

`CCOC(=O)C(CC)NP(=O)(CCNCc1ccc(C[C@H](NC(=O)O[C@H]2CO[C@H]3OCC[C@H]32)[C@H](O)CN(CC(C)C)S(=O)(=O)c2ccc(OC)cc2)cc1)Oc1ccccc1` (stereo partly shown) [drawing 662 R1=Ph R2=Aba-Et]: in experiment [1], the “I50V (#2) fold change” value is reported as “+ (>3 to ≦10)”. Turning to `Cc1cccc(C)c1OCC(=O)N[C@@H](Cc1ccc(OCP(=O)(Oc2ccccc2)Oc2ccccc2)cc1)[C@H](O)CN(CC(C)C)S(=O)(=O)c1ccc(N)cc1`, the “I50V (#1) fold change” value in experiment [2] (I50V (#1) mutant) is recorded as “+++ (>30)”. As to `Cc1cccc(C)c1OCC(=O)N[C@@H](Cc1ccccc1)[C@@H](O)C[C@H](Cc1ccccc1)NC(=O)[C@H](C(C)C)N1CCCNC1=O` [Lopinavir], the “I50V (#2) fold change” value in experiment [1] is “+++ (>30)”.

Turning to `COc1ccc(S(=O)(=O)N(CC(O)C(Cc2ccccc2)NC(=O)OC2COC3OCCC23)CC(C)(C)CO)cc1` (stereo not shown), the “I50V (#1) fold change” value in experiment [2] (I50V (#1) mutant) is on record as “+++ (>30)”. With `COc1ccc(S(=O)(=O)N(CC(C)C)CC(O)C(Cc2ccc(NCP(=O)(OCc3ccccc3)OCc3ccccc3)cc2)NC(=O)OC2COC3OCCC23)cc1` (stereo not shown), in experiment [2] (setting [3]), the “I50V (#1) fold change” value is given as “+ (>3 to ≦10)”. As to `CCOC(=O)C(C)OP(=O)(Oc1ccccc1)c1ccc(CN(C)CC(NC(=O)OC2COC3OCCC23)C(O)CN(CC(C)C)S(=O)(=O)c2ccc(OC)cc2)cc1` (stereo not shown), in experiment [2] (setting [3]), the “I50V (#1) fold change” value was “++ (>10 to ≦30)”.

Turning to `Cc1ccc(C(=O)N[C@@H](Cc2ccc(OCP(=O)(Oc3ccccc3)Oc3ccccc3)cc2)[C@H](O)CN(CC(C)C)S(=O)(=O)c2ccc(N)cc2)cc1O`, in experiment [2] (I50V (#1) mutant), the “I50V (#1) fold change” value was “+++ (>30)”.

For the compound `CCCCOC(=O)C(CC(C)C)NP(=O)(COc1ccc(CC(NC(=O)OC2COC3OCCC23)C(O)CN(CC(C)C)S(=O)(=O)c2ccc(OC)cc2)cc1)NC(CC(C)C)C(=O)OCCCC` (stereo not shown) [drawing 655 R1=Leu-Bu R2=Leu-Bu], the “I50V (#1) fold change” value in experiment [2] (setting [3]) is “+ (>3 to ≦10)”. For the compound `CCOC(=O)C(C)OP(=O)(COc1ccc(C[C@H](NC(=O)O[C@H]2CO[C@H]3OCC[C@H]32)[C@H](O)CN(CC(C)C)S(=O)(=O)c2ccc(F)cc2)cc1)Oc1ccccc1` (stereo partly shown), the “I50V (#1) fold change” value in experiment [2] (I50V (#1) mutant) is reported as “+ (>3 to ≦10)”.

As to `CCOP(=O)(Cc1ccc2c(c1)CCN(CC(NC(=O)OC1COC3OCCC13)C(O)CN(CC(C)C)S(=O)(=O)c1ccc(OC)cc1)C2)OCC` (stereo not shown), the “I50V (#1) fold change” value in experiment [2] (setting [3]) was “+ (>3 to ≦10)”. Regarding `CC(C)CN(CC(O)C(Cc1ccc(OCP(=O)(O)O)cc1)NC(=O)OC1COC2OCCC12)S(=O)(=O)c1ccc(N)cc1` (stereo not shown), the “I50V (#1) fold change” value in experiment [2] (I50V (#1) mutant) is “+ (>3 to ≦10)”. Take `CCOC(=O)C(C)OP(=O)(CCN(C)Cc1ccc(CC(NC(=O)OC2COC3OCCC23)C(O)CN(CC(C)C)S(=O)(=O)c2ccc(OC)cc2)cc1)Oc1ccccc1` (stereo not shown) [drawing 663 R1=Ph R2=Lac-Et]: in experiment [2] (setting [3]), the “I50V (#1) fold change” value is given as “+ (>3 to ≦10)”. For the compound `CCOC(=O)C(C)OP(=O)(COc1ccc(C[C@H](NC(=O)O[C@H]2CO[C@H]3OCC[C@H]32)[C@H](O)CN(CC(C)C)S(=O)(=O)c2ccccc2)cc1)Oc1ccccc1` (stereo partly shown), the “I50V (#1) fold change” value in experiment [2] (I50V (#1) mutant) was “+ (>3 to ≦10)”.
